Pooled drug test results. Numbers come from NIAID ChemDB, via PubChem.

All rows: tests in culture; organism: Cryptococcus neoformans

Conditions beyond the fields shown may differ between rows. MIC50, MIC90 and the like: level of inhibition, or share of isolates inhibited. a–b is a range or a potency band. An empty or dashed field is not shown. ECn is the concentration giving n% inhibition of infection, replication or growth.

compound,strain or isolate,read by,read-out,result
O=[N+]([O-])c1cccc2c1CCc1snnc1-2,-,-,MIC,3.12 µg/mL
CC(CCC(O)C(C)(O)CO)C1(O)CCC2(C)C3=C(CCC21C)C1(C)CCC(OC(=O)CCC(=O)O)C(C)(C)C1CC3,MY2061,-,MIC,>64 µg/mL
CCCOc1ccc2nc(NC(=O)OC)[nH]c2c1,ATCC 14116,-,EC50,1.4 µg/mL
CC(=O)O[C@@H]1C[C@@]23C(=O)OC[C@](C)([C@@H]2CC[C@H]2C3=CC[C@@]3(C)[C@H](C(=O)O)[C@@](C)([C@H](C)C(C)C)CC[C@]23C)[C@H]1O[C@@H]1O[C@H](CO)[C@@H](O)[C@H](O)[C@H]1O,MY2061,-,MIC,>64 µg/mL
Cc1ccc(C(C)C)c(O)c1,CBS 132,broth dilution / turbidity,EC50,0.16 µM
CC[C@@H]([C@H](C)O)n1ncn(-c2ccc(N3CCN(c4ccc(OC[C@@H]5CO[C@@](Cn6cncn6)(c6ccc(F)cc6F)C5)cc4)CC3)cc2)c1=O,-,-,MIC50,0.004–0.06 µg/mL
CCCCCCCCCCCCCCCCCCCO,ATCC 208821,broth dilution,MLC,200 µg/mL
Cc1ccc(/C=C/C(=O)c2ccccc2)cc1,ATCC 32264,-,MIC,>50 µg/mL
N=C(N)c1ccc2c(c1)[nH]c1cc(C(=N)N)ccc12,H99,-,MIC,6.25 µg/mL
C[C@@H](c1ncncc1F)[C@](O)(Cn1cncn1)c1ccc(F)cc1F,-,-,MIC50,0.03–0.06 µg/mL
O=c1c(O)c(-c2ccc(O)c(O)c2)oc2cc(O)cc(O)c12,ATCC 208821,broth dilution,MLC,200 µg/mL
COC(=O)C(C(=O)OC)C(CC(=O)c1ccccc1)c1ccc2ccccc2c1,ATCC 32264,-,MIC,>50 µg/mL
N#[N+]c1nc(-c2ccc([N+](=O)[O-])cc2)[nH]c1C(=O)N1CCCC1,L29,-,MIC,50 µg/mL
CCCCCCCCN[C@H]1CCc2cc(OC)c(OC)cc2C1,-,-,MIC80,4 µg/mL
CCCCc1nc([N+]#N)c(C(=O)N2CCCC2)[nH]1,L29,-,MIC,50 µg/mL
O=C(O)c1cc(O)c(O)c(O)c1,ATCC 208821,broth dilution,MIC,100 µg/mL
N#[N+]c1nc[nH]c1C(=O)N1CCCC1,L29,-,MIC,50 µg/mL
C[C@H]1[C@H](O)[C@@H](C)/C=C/C=C/C=C/C=C/C=C/C=C/C=C/[C@H](O[C@@H]2O[C@H](C)[C@@H](O)[C@H](N)[C@@H]2O)C[C@@H]2O[C@](O)(C[C@@H](O)C[C@@H](O)CC[C@H](O)[C@@H](O)C[C@@H](O)CC(=O)O[C@H]1C)C[C@H](O)[C@H]2C(=O)O,-,-,MBC,3.7 µM
COc1ccc(OC)c2c1CCc1snnc1-2,-,-,MIC,12.5 µg/mL
COc1cc2cc(/C=C/C(=O)c3ccccc3)c(Cl)nc2cc1OC,ATCC 32264,-,MIC,>50 µg/mL
Cc1c(N)nc([C@H](CC(N)=O)NC[C@H](N)C(N)=O)nc1C(=O)N[C@H](C(=O)N[C@H](C)[C@@H](O)[C@H](C)C(=O)N[C@H](C(=O)NCCc1nc(-c2nc(C(=O)NCCC[S+](C)C)cs2)cs1)[C@@H](C)O)C(O[C@@H]1O[C@@H](CO)[C@@H](O)[C@H](O)[C@@H]1O[C@H]1O[C@H](CO)[C@@H](O)[C@H](OC(N)=O)[C@@H]1O)c1cnc[nH]1,Isolate 94-181,-,MIC,0.78 µg/mL
O=C(O)/C=C/c1ccccc1,CBS 132,broth dilution / turbidity,EC50,0.11 µM
O=C(/C=C/c1ccc(Cl)cc1)c1ccc(Cl)cc1,ATCC 32264,-,MIC,>50 µg/mL
COc1cc(O)c2c(c1)C(=O)c1c(cc3c(c1O)-c1c(cc(C)c(C(=O)N[C@H](CO)C(=O)O)c1O)[C@H](O[C@@H]1O[C@H](C)[C@H](O)[C@H](O)[C@H]1O)[C@H]3O)C2=O,D49,-,MIC,1.6 µg/mL
N#[N+]c1nc(-c2ccccc2)[nH]c1C(=O)N1CCCC1,L29,-,MIC,50 µg/mL
Clc1ccc(-n2ncc(C(c3ccccc3)n3ccnc3)c2-c2ccccc2Cl)c(Cl)c1,-,-,MBC,33.3 µM
CC[C@H]1OC(=O)C=C2C1=CC1OC(=O)[C@@]3(C)CCC[C@@]2(C)[C@@H]13,ATCC90112,-,MIC,4 µg/mL
CCC(C)CC(C)CCCCCCCCC(=O)N[C@H]1C[C@@H](O)[C@H](NCCN)NC(=O)[C@@H]2[C@@H](O)CCN2C(=O)[C@H]([C@H](O)CCN)NC(=O)[C@H]([C@H](O)[C@@H](O)c2ccc(O)cc2)NC(=O)[C@@H]2C[C@@H](O)CN2C(=O)[C@H]([C@@H](C)O)NC1=O,-,-,MIC90,>8 µg/mL
O=[N+]([O-])Sc1ccc2c(c1)-c1nn[se]c1CC2,-,-,MIC,12.5 µg/mL
CCCCCCCCN[C@@H]1CCc2cc(OC)c(OC)cc2C1,-,-,MIC80,16 µg/mL
CCCCCOc1ccc(-c2ccc(-c3ccc(C(=O)N[C@H]4C[C@@H](O)[C@@H](O)NC(=O)[C@@H]5[C@@H](O)[C@@H](C)CN5C(=O)[C@H]([C@H](C)O)NC(=O)[C@H]([C@H](O)[C@@H](O)c5ccc(O)cc5)NC(=O)[C@@H]5C[C@@H](O)CN5C(=O)[C@H]([C@H](C)O)NC4=O)cc3)cc2)cc1,-,-,MIC90,>8 µg/mL
CCOP(=O)(OCC)C(F)(F)[C@@H]1[C@@H](O)[C@H](O)[C@H](CO)N1CCNC1[C@@H](CO)O[C@H](OC)[C@H](NC(C)=O)[C@H]1O,-,-,MIC,>128 µg/mL
Clc1ccc(-c2c(C(c3ccccc3)n3ccnc3)cnn2-c2ccc(Cl)cc2Cl)cc1,-,-,MBC,33.3 µM
CCCCCCCCCCCCN[C@H]1CCc2cc(OC)c(OC)cc2C1,-,-,MIC80,1 µg/mL
COC(=O)Nc1nc2ccccc2[nH]1,IU8698,-,EC50,1.5 µg/mL
CCCCCCCCCCCCN[C@@H]1CCc2cc(OC)c(OC)cc2C1,-,-,MIC80,1 µg/mL
COC(=O)C(C(=O)OC)C(CC(=O)c1ccccc1)c1cccc(OC)c1OC,ATCC 32264,-,MIC,>50 µg/mL
CCCCCCCCCCN[C@@H]1CCc2cc(OC)c(OC)cc2C1,-,-,MIC80,1 µg/mL
COC(=O)Nc1nc2ccc(Sc3ccccc3)cc2[nH]1,IU4,-,EC50,0.019 µg/mL
O=C(O)c1ccccc1,CBS 132,-,EC50,0.26 µM
CCCCCCCCCN[C@H]1CCc2cc(OC)c(OC)cc2C1,-,-,MIC80,4 µg/mL
CC[C@H]1OC(=O)C=C2[C@@]13O[C@@H]3C1OC(=O)[C@@]3(C)CCC[C@@]2(C)[C@@H]13,ATCC90112,-,MIC,8 µg/mL
N#CC(C#N)C(CC(=O)c1ccccc1)c1ccc(Cl)cc1Cl,ATCC 32264,-,MIC,>50 µg/mL
CCC(C)CC(C)CCCCCCCCC(=O)N[C@H]1C[C@@H](O)[C@@H](OCCN)NC(=O)[C@@H]2C[C@@H](O)CN2C(=O)[C@H]([C@H](O)CCN)NC(=O)[C@H]([C@H](O)[C@@H](O)c2ccc(O)cc2)NC(=O)[C@@H]2C[C@@H](O)CN2C(=O)[C@H]([C@@H](C)O)NC1=O,MY2061,-,MIC,16 µg/mL
COc1cccc(/C=C/C(=O)c2ccccc2)c1,ATCC 32264,-,MIC,>50 µg/mL
Clc1ccc(-c2c(C(c3ccccc3)n3ccnc3)cnn2-c2ccc(Cl)cc2)cc1,-,-,MIC,11.1 µM